Compound potency records, mixed from different reports. Data source: NIAID ChemDB in PubChem.

All rows: growth or infection tests; organism: HIV-1; method: MTT; measure: EC50

Conditions beyond the fields shown may differ between rows.

CCCCCCNc1c(N=Nc2ccc(Cl)cc2)c(N)nc(=O)n1C ; strain or isolate: IIIB ; cell line: MT-4 ; result: >66.6 µM
CCc1c(Cc2ccccc2)n(COCCCc2ccccc2)c(=O)[nH]c1=O ; strain or isolate: EFVR ; changes: K103R/V179D/P225H ; cell line: MT-4 ; result: >23 µM
N#Cc1ccc(-c2csc(N/N=C/c3ccncc3)n2)cc1 ; strain or isolate: IIIB ; cell line: MT-4 ; result: >53.1 µM
COc1ccc(CCNc2nc(NC(=O)Nc3ccccc3Cl)nc(Oc3cc(=O)oc4ccccc34)n2)cc1OC ; strain or isolate: IIIB ; cell line: MT-4 ; result: >51.15 µg/mL
C=CC1C[C@@]23CC[C@H](C(C)(C)O)[C@@](C)(CCC(=O)OC)[C@@H]2C[C@@H]1[C@@H](O)C3=O ; cell line: MT-4 ; result: >25 µg/mL
COc1c(O)cc2ccc(=O)oc2c1-c1c(O)ccc2ccc(=O)oc12 ; changes: AZT-resistant (67N 70R 215F 219Q) ; cell line: MT-4 ; result: 6.6 µM
Cn1c(N2CCOCC2)c(N=Nc2ccc(-c3ccc(F)cc3)cc2)c(N)nc1=O ; strain or isolate: IIIB ; cell line: MT-4 ; result: >88.71 µM
CCOC(=O)CNc1nc(NC(=O)Nc2ccc3ccccc3c2)nc(Oc2cc(=O)oc3ccccc23)n1 ; strain or isolate: IIIB ; cell line: MT-4 ; result: >125 µg/mL
C[C@]12CCC3C(CC=C4C[C@@H](O)CC[C@@]43C)C1CCC2C(=O)/C=C/c1ccsc1 ; strain or isolate: IIIB ; cell line: MT-4 ; result: >125 µM
C=C(c1ccccc1)c1c(C)c(=O)[nH]c(=O)n1COCc1ccccc1 ; strain or isolate: IIIB ; cell line: MT-4 ; result: 5.27 µM
COc1ccc(S(=O)(=O)N(CC(C)C)C[C@@H](O)[C@H](Cc2ccccc2)NC(=O)O[C@H]2CCC[C@H]3CCC[C@H]32)cc1 ; strain or isolate: LAI ; cell line: MT-2 ; result: 1 µM
Fc1ccc(NC(=S)NCc2ccco2)cc1Cl ; strain or isolate: IIIB ; cell line: MT-4 ; result: >35.8 µM
CC(=O)N1N=C(C2CCC3C4CC=C5C[C@@H](O)CC[C@]5(C)C4CC[C@]23C)CC1c1ccc(Br)cc1 ; strain or isolate: IIIB ; cell line: MT-4 ; result: >0.29 µM
CCc1c(Cc2ccc(OC)c(OC)c2)n(COCC2CC2)c(=O)[nH]c1=O ; strain or isolate: A17 ; changes: K103N/Y181C ; cell line: MT-4 ; result: >100 µM
N#Cc1ccc(Nc2nnc(Cc3c(F)cccc3F)o2)cc1 ; strain or isolate: IIIB ; cell line: MT-2 ; result: 0.23 µM
Cc1cc(C#N)cc(C)c1Oc1nc(NC2CCC(NCc3ccc([N+](=O)[O-])cc3)CC2)nc2ccsc12 ; strain or isolate: IIIB ; changes: NNRTI-resistant (RT K103N) ; cell line: MT-4 ; result: 0.69 µM
CC1(C)[C@H](O)CC[C@]2(C)[C@@H]1CC[C@@]13CC[C@@H](C[C@H]12)C([C@@H](O)CO)C3 ; cell line: MT-4 ; result: >25 µg/mL
Cc1cc(C#N)cc(C)c1Oc1nc(NC2CCN(Cc3ccc(S(C)(=O)=O)cc3)CC2)nc2sccc12 ; strain or isolate: IIIB ; changes: NNRTI-resistant (RT K103N) ; cell line: MT-4 ; result: 0.00164 µM
S=C(NCc1ccco1)Nc1ccc(I)cc1 ; strain or isolate: IIIB ; cell line: MT-4 ; result: >36.5 µM
Clc1ccc(Nc2nnc(Cc3c(Cl)cccc3Cl)o2)c(Cl)c1 ; strain or isolate: IIIB ; cell line: MT-2 ; result: 2.4 µM
CCNc1c(N=Nc2ccc(Cl)cc2)c(N)nc(=O)n1C ; strain or isolate: IIIB ; cell line: MT-4 ; result: >36.72 µM
O=C(COc1nsnc1-c1cccc2ccccc12)Nc1ccccc1[N+](=O)[O-] ; strain or isolate: IIIB ; cell line: MT-4 ; result: 16 µM
CCOC(=O)CNc1nc(NC(=O)Nc2ccc(C)cc2)nc(Oc2cc(=O)oc3ccccc23)n1 ; strain or isolate: IIIB ; cell line: MT-4 ; result: >11.27 µg/mL
Clc1ccc(Cc2nnc(Cc3c(Cl)cccc3Cl)o2)cc1 ; strain or isolate: IIIB ; cell line: MT-2 ; result: 18 µM
Cc1c(C(C)(O)c2ccc(F)cc2)n(COCc2ccccc2)c(=O)[nH]c1=O ; strain or isolate: IIIB ; cell line: MT-4 ; result: >237 µM
CCc1c(Cc2ccccc2)n(COCC2CC2)c(=O)[nH]c1=O ; strain or isolate: IIIB ; cell line: MT-4 ; result: 1.1 µM
Cn1c(N2CCNCC2)c(N=Nc2ccc(Cl)cc2)c(N)nc1=O ; strain or isolate: IIIB ; cell line: MT-4 ; result: >3.03 µM
N#Cc1ccc(Nc2ncc(Cc3c(Cl)cccc3Cl)s2)cc1 ; strain or isolate: IIIB ; cell line: MT-2 ; result: 0.43 µM
C=C(c1ccc(F)cc1)c1c(C)c(=O)[nH]c(=O)n1COCc1ccccc1 ; strain or isolate: IIIB ; cell line: MT-4 ; result: 44.15 µM
CCOc1ccc(NC(=S)Nc2nc(NCCc3ccc(OC)c(OC)c3)nc(Oc3cc(=O)oc4ccccc34)n2)cc1 ; strain or isolate: IIIB ; cell line: MT-4 ; result: >66.05 µg/mL
Cc1cn([C@H]2C[C@H](N=[N+]=[N-])[C@@H](CO)O2)c(=O)[nH]c1=O ; strain or isolate: IIIB ; cell line: MT-4 ; result: 0.02 µM
COCc1ccc(Nc2nnc(Cc3c(Cl)cccc3Cl)o2)cc1Cl ; strain or isolate: IIIB ; cell line: MT-2 ; result: 1.3 µM
c1ccc(COCC2OC(OC3C4COC(O4)C(OCc4ccccc4)C3OCc3ccccc3)C(OCc3ccccc3)C(OCc3ccccc3)C2OCc2ccccc2)cc1 ; cell line: MT-4 ; result: 0.23 µg/mL
O=C(COc1nsnc1-c1cccc2ccccc12)Nc1ccccn1 ; strain or isolate: IIIB ; cell line: MT-4 ; result: >13 µM
Cc1cc(C#N)cc(C)c1Oc1nc(NC2CCN(Cc3ccc(S(N)(=O)=O)cc3)CC2C(=O)O)nc2ccsc12 ; strain or isolate: IIIB ; changes: NNRTI-resistant (RT K103N) ; cell line: MT-4 ; result: 0.827 µM
C[C@]12CCC3C(CC=C4C[C@@H](O)CC[C@@]43C)C1CCC2C(=O)/C=C/c1ccccc1C(=O)O ; strain or isolate: IIIB ; cell line: MT-4 ; result: >13.98 µM
COc1ccc(-c2ccc(N=Nc3c(N)nc(=O)n(C)c3N3CCCCC3)cc2)cc1OC ; strain or isolate: IIIB ; cell line: MT-4 ; result: >18.15 µM
C=C1C[C@@]23CC[C@@H]4C(C)(C)C(=O)CC[C@@]4(C)[C@@H]2C[C@@H]1[C@@H](O)C3=O ; cell line: MT-4 ; result: >25 µg/mL
S=C(Nc1cccc(Cl)c1)NC1CCN(Cc2ccccc2)CC1 ; strain or isolate: IIIB ; cell line: MT-4 ; result: >28 µM
C/C(=N\Nc1nc(-c2ccc(C#N)cc2)cs1)c1ccc(-n2ccnc2)cc1 ; strain or isolate: IIIB ; cell line: MT-4 ; result: >73.95 µM
Cc1ccc(/C=C/C(=O)C2CCC3C4CC=C5C[C@@H](O)CC[C@]5(C)C4CC[C@]23C)cc1 ; strain or isolate: IIIB ; cell line: MT-4 ; result: >51.7 µM
CCC(O)(c1ccccc1OC)c1c(C)c(=O)[nH]c(=O)n1COCc1ccccc1 ; strain or isolate: IIIB ; cell line: MT-4 ; result: >90.34 µM
S=C(Nc1ccccc1Br)NC1CCN(Cc2ccccc2)CC1 ; strain or isolate: IIIB ; cell line: MT-4 ; result: >58 µM
CC1(C)C(=O)CC[C@]2(C)[C@@H]1CC[C@@]13CC[C@@H](C[C@H]12)C([C@@H](O)CO)C3 ; cell line: MT-4 ; result: 6.6 µg/mL
CC(Oc1nsnc1-c1cccc2ccccc12)C(=O)Nc1ccccc1Cl ; strain or isolate: IIIB ; cell line: MT-4 ; result: 19 µM
CC(C)CN(C[C@@H](O)[C@H](Cc1ccccc1)NC(=O)O[C@H]1CO[C@@H]2OCC[C@@H]21)S(=O)(=O)c1ccc2c(C=NCCO)c(O)[nH]c2c1 ; result: >0.4 µM
N#Cc1ccc(-c2csc(N/N=C/c3ccccc3O)n2)cc1 ; strain or isolate: IIIB ; cell line: MT-4 ; result: >104 µM
Cc1cc(C#N)cc(C)c1Oc1nc(NC2CCC(NCc3ccc(S(C)(=O)=O)cc3)CC2)nc2ccsc12 ; strain or isolate: IIIB ; changes: NNRTI-resistant (RT Y181C) ; cell line: MT-4 ; result: >75.2 µM
Cc1ccnc2c1NC(=O)c1cccnc1N2C1CC1 ; changes: E138K ; cell line: MT-4 ; result: 0.218 µM
Cc1cc(/C=C/C#N)cc(C)c1Oc1nc(NC2CCN(Cc3ccc(Cl)cc3)CC2)nc2ccsc12 ; strain or isolate: IIIB ; changes: NNRTI-resistant (RT Y188L) ; cell line: MT-4 ; result: 0.177 µM
C=C(c1ccc(OC)cc1)c1c(C)c(=O)[nH]c(=O)n1COCc1ccccc1 ; strain or isolate: IIIB ; cell line: MT-4 ; result: >131 µM
CC(C)[C@H](C)CC[C@](C)(O)[C@H]1C(=O)C[C@H]2[C@@H]3C(=O)C=C4C[C@@H](O)CC[C@]4(C)[C@H]3CC[C@@]21C ; strain or isolate: NL4-3 ; changes: G140S/Q148R INI-resistant ; cell line: MT-4 ; result: 0.1053 µM
Cc1ccnc2c1NC(=O)c1cccnc1N2C1CC1 ; strain or isolate: IIIB ; cell line: MT-4 ; result: 0.14 µM
C=C(CC[C@](C)(O)[C@H]1[C@@H](O)C[C@H]2[C@@H]3[C@H](O)C=C4C[C@@H](O)CC[C@]4(C)[C@H]3CC[C@@]21C)C(C)C ; strain or isolate: NL4-3 ; cell line: MT-4 ; result: 1.75 µM
CCc1c(Cc2cc(C)cc(C)c2)n(COCCc2ccccc2)c(=O)[nH]c1=O ; strain or isolate: EFVR ; changes: K103R/V179D/P225H ; cell line: MT-4 ; result: 20 µM
Cc1cc(C#N)cc(C)c1Oc1nc(NC2CCC(NCc3ccc(O)cc3)CC2)nc2ccsc12 ; strain or isolate: IIIB ; changes: NNRTI-resistant (RT F227L V106A) ; cell line: MT-4 ; result: >20.1 µM
Brc1ccc(-c2csc(N/N=C/c3ccncc3)n2)cc1 ; strain or isolate: IIIB ; cell line: MT-4 ; result: >125 µM
NC1=NC2C(N=CN2[C@H]2C[C@@H](CCP(=O)(O)O)CO2)C(=O)N1 ; cell line: MT-4 ; result: 60.2 µg/mL
CCc1c(Cc2ccc(C)cc2)n(COCCCc2ccccc2)c(=O)[nH]c1=O ; strain or isolate: A17 ; changes: K103N/Y181C ; cell line: MT-4 ; result: >43 µM
C/C(=N\Nc1nc(-c2ccc(C#N)cc2)cs1)c1ccc(Cl)c(Cl)c1 ; strain or isolate: IIIB ; cell line: MT-4 ; result: >17.1 µM
Cn1c(-c2ccc(F)cc2)c(N=Nc2ccc(-c3ccc(F)cc3)cc2)c(N)nc1=O ; strain or isolate: IIIB ; cell line: MT-4 ; result: >66.6 µM
Cc1cccc(C(C)c2c(C(C)C)c(=O)[nH]c(=O)n2COCc2ccccc2)c1 ; strain or isolate: IIIB ; changes: E138K ; cell line: MT-4 ; result: 1.06 µM
S=C(Nc1cccc(Br)c1)NC1CCN(Cc2ccccc2)CC1 ; strain or isolate: IIIB ; cell line: MT-4 ; result: >14.6 µM
CC(C)CN(C[C@@H](O)[C@H](Cc1ccccc1)NC(=O)O[C@H]1CO[C@H]2OCC[C@H]21)S(=O)(=O)c1ccc2[nH]c(O)c(C=NCc3nc4ccccc4[nH]3)c2c1 ; changes: L10 V32 M46 L63 A71 I84 ; cell line: MT-4 ; result: >0.4 µM
C[C@]12CCC3C(CC=C4CC(O)CC[C@@]43C)C1CCC2C(/C=C/c1ccc(Br)cc1)=N/O ; strain or isolate: IIIB ; cell line: MT-4 ; result: >10.28 µM
Clc1ccc(Nc2nnc(Cc3c(Cl)cccc3Cl)o2)cc1 ; strain or isolate: IIIB ; cell line: MT-2 ; result: 0.88 µM
CCOC(=O)CNc1nc(Nc2ccccc2C)nc(Oc2cc(=O)oc3ccccc23)n1 ; strain or isolate: IIIB ; cell line: MT-4 ; result: >23.12 µg/mL
Cn1c(-c2ccc(F)c(F)c2)cc(N)nc1=O ; strain or isolate: IIIB ; cell line: MT-4 ; result: >16.01 µM
CCc1c(Cc2cc(C)cc(C)c2)n(COCCCc2ccccc2)c(=O)[nH]c1=O ; strain or isolate: N119 ; changes: Y181C ; cell line: MT-4 ; result: 8.8 µM
CCOC(=O)c1ccc(-c2ccc(N=Nc3c(N)nc(=O)n(C)c3-c3ccc(C(=O)OCC)cc3)cc2)cc1 ; strain or isolate: IIIB ; cell line: MT-4 ; result: >28.24 µM
CCOCn1c(Cc2ccccc2)c(C(C)C)c(=O)[nH]c1=O ; strain or isolate: IIIB ; cell line: MT-4 ; result: 0.03 µM
Brc1ccc(-c2csc(N/N=C/c3ccccn3)n2)cc1 ; strain or isolate: IIIB ; cell line: MT-4 ; result: >2.71 µM
Cc1ccc(NC(=O)COc2nsnc2-c2cccc3ccccc23)c(Br)c1 ; strain or isolate: IIIB ; cell line: MT-4 ; result: >14 µM
C=C(c1cc(OC)cc(OC)c1)c1c(C)c(=O)[nH]c(=O)n1COCc1ccccc1 ; strain or isolate: IIIB ; changes: Y181C ; cell line: MT-4 ; result: 53.48 µM

Repeating the final 8 entries:

CCOC(=O)CNc1nc(Nc2ccccc2C)nc(Oc2cc(=O)oc3ccccc23)n1 ; strain or isolate: IIIB ; cell line: MT-4 ; result: >23.12 µg/mL
Cn1c(-c2ccc(F)c(F)c2)cc(N)nc1=O ; strain or isolate: IIIB ; cell line: MT-4 ; result: >16.01 µM
CCc1c(Cc2cc(C)cc(C)c2)n(COCCCc2ccccc2)c(=O)[nH]c1=O ; strain or isolate: N119 ; changes: Y181C ; cell line: MT-4 ; result: 8.8 µM
CCOC(=O)c1ccc(-c2ccc(N=Nc3c(N)nc(=O)n(C)c3-c3ccc(C(=O)OCC)cc3)cc2)cc1 ; strain or isolate: IIIB ; cell line: MT-4 ; result: >28.24 µM
CCOCn1c(Cc2ccccc2)c(C(C)C)c(=O)[nH]c1=O ; strain or isolate: IIIB ; cell line: MT-4 ; result: 0.03 µM
Brc1ccc(-c2csc(N/N=C/c3ccccn3)n2)cc1 ; strain or isolate: IIIB ; cell line: MT-4 ; result: >2.71 µM
Cc1ccc(NC(=O)COc2nsnc2-c2cccc3ccccc23)c(Br)c1 ; strain or isolate: IIIB ; cell line: MT-4 ; result: >14 µM
C=C(c1cc(OC)cc(OC)c1)c1c(C)c(=O)[nH]c(=O)n1COCc1ccccc1 ; strain or isolate: IIIB ; changes: Y181C ; cell line: MT-4 ; result: 53.48 µM

ECn: concentration that inhibits the pathogen or its effect by n%.